Results of unrelated studies side by side (data: NIAID ChemDB).

Shared fields: whole-cell or culture tests; species: Mycobacterium tuberculosis

MIC bound comes from a single tested concentration.

SMILES,strain or isolate,changes,cells,method,read-out,dose,value
COc1ccc(-n2c(S[Si](C)(C)C)nc3ccccc3c2=O)cc1,H37Rv,-,-,-,MIC,-,≤10 µg/mL
COC(=O)C1=C(C)NC(Nc2ccc(Br)cc2)=NC1c1ccc(Cl)cc1,MDR-TB,-,-,agar,MIC,-,64 µg/mL
COC(=O)/C=C/C1(CC(C)C)N=C(c2ccccc2)OC1=O,H37Rv,-,-,BACTEC,inhibition,12.5 µg/mL,16%
COC(=O)C1=C(C)NC(Nc2cccc(Br)c2)=NC1c1ccc(Cl)cc1,XDR-TB,-,-,agar,MIC,-,>64 µg/mL
CC(C)OC(=S)SCN1C(=O)c2ccccc2S1(=O)=O,H37Rv,-,-,-,MIC,-,3.13 µg/mL
COc1ccc(-n2c(S[Si](C)(C)C)nc3c(I)cccc3c2=O)cc1,H37Rv,-,-,-,MIC,-,≤40 µg/mL
O=c1oc2ccccc2c(O)c1C1=Nc2ccccc2SC(c2ccccc2[N+](=O)[O-])C1,H37Rv,-,-,resazurin,MIC,-,<6.25 µg/mL
Cc1ccc(-n2nnnc2SSc2nnnn2-c2ccc(C)cc2)cc1,H37Rv,-,-,-,MIC,-,250 µM
N[C@H](C(=O)O)[C@H]1ON=C(Cl)[C@@H]1O,H37Rv,-,-,BACTEC,MIC,-,≥12.5 µg/mL
O=[N+]([O-])c1cnc(NS(=O)(=O)c2nnc3sc4ccccc4n23)s1,H37Rv,-,-,-,MIC,-,2 µg/mL
COc1ccc2nc3cc(Cl)ccc3c(Nc3cc(CN4CCCC4)c(O)c(CN4CCCC4)c3)c2n1,DR1,mmpL3 V681I,-,resazurin,MIC,-,5–10 µg/mL
Cc1ccc(NCCN(C)C)c2c(=O)c3ccccc3sc12,H37Rv,-,-,BACTEC,MIC,-,3.13 µg/mL
C[C@@H]1[C@H](O)[C@@H](C)/C=C/C=C/CC/C=C/C=C/C=C/C=C/C(O[C@H]2O[C@H](C)[C@@H](O)[C@H](N)[C@@H]2O)CC2O[C@](O)(CC(O)C(O)CCC(O)CC(O)CC(O)CC(=O)O[C@H]1C)CC(O)C2C(=O)O,H37Rv,-,-,broth dilution,MIC,-,0.002 µM
CCC1=NOC2(CCN(C(=O)CCC(F)(F)F)CC2)C1,H37Rv,-,THP-1,fluorescence,EC50,-,<0.1 µM
C#C/C=C\C[C@H]1O/C(=C(/Br)CC)C/C=C\C[C@H]1Cl,H37Rv,-,-,BACTEC,inhibition,12.5 µg/mL,15%
O=c1[nH]c2cc(F)c(F)cc2nc1CBr,-,-,-,-,inhibition,12.5 µg/mL,inactive
CO[C@H]1/C=C/O[C@@]2(C)Oc3c(C)c(O)c4c(O)c(c5[nH]c(N(Cc6ccccc6)c6ccccc6)nc5c4c3C2=O)NC(=O)/C(C)=C\C=C\[C@H](C)[C@H](O)[C@@H](C)[C@@H](O)[C@@H](C)[C@H](OC(C)=O)[C@@H]1C,H37Rv,-,-,-,MIC,-,0.04 µg/mL
COc1ccc2c3c1OC1C(=O)C4CC5(c6c(O)ccc(O)c64)C(C2)N(C)CCC315,H37Rv,-,-,BACTEC,MIC bound,-,>12.5 µg/mL
NC1=C([N+](=O)[O-])NC2OC[C@@H](OCc3ccc(OC(F)(F)F)cc3)CN12,F420-,-,-,broth dilution,MIC,-,>100 µM
CO[C@H]1/C=C/O[C@@]2(C)Oc3c(C)c(O)c4c(O)c(c(/C=N/N5CCN(C6CCCC6)CC5)c(O)c4c3C2=O)NC(=O)/C(C)=C\C=C\[C@H](C)[C@H](O)[C@@H](C)[C@@H](O)[C@@H](C)[C@H](OC(C)=O)[C@@H]1C,H37Rv,-,-,resazurin,MIC90,-,<0.15 µM
Cc1ccc2c(ccc(/C=C/c3cc(C)c4cccnc4c3O)[n+]2C)c1,H37Rv,-,-,BACTEC,MIC bound,-,>12.5 µg/mL
CNC(=O)[C@@H](C)[C@@H]1NC(=O)/C(=C(O)/C=C/C(C)=C/[C@@H](C)[C@@H]2O[C@]3(C)O[C@@H](C=C[C@]34CO4)[C@@H]2C)C1=O,H37Rv,-,-,resazurin,MIC90,-,200 µg/mL
CCCCCCOC1=NOC2(CCN(C(=O)CCC(F)(F)F)CC2)C1,H37Rv,-,THP-1,fluorescence,EC50,-,<0.5 µM
CC[C@H]1OC(=O)[C@H](C)[C@@H](O[C@H]2C[C@@](C)(OC)[C@@H](O)[C@H](C)O2)[C@H](C)[C@@H](O[C@@H]2O[C@H](C)C[C@H](N(C)C)[C@H]2O)[C@](C)(O)C[C@@H](C)C(=O)[C@H](C)[C@@H](O)[C@]1(C)O,H37Rv,-,-,-,MBC,-,40 µg/mL
C[C@@H]1CN(c2c(F)c(N)c3c(=O)c(C(=O)O)cn(C4CC4)c3c2F)C[C@H](C)N1,H37Rv,-,-,-,MIC,-,0.25 µg/mL
N[C@@H]1CONC1=O,H37Rv,-,-,-,MIC,-,<10 µg/mL
CC1=CCC[C@@H]2[C@@](C)(CC/C(C)=C/CO)[C@H](C)CC[C@@]12C,-,-,-,-,MIC,-,>100 µg/mL
O=C1CSc2nnc(COc3ccccc3)n2N1C(=O)c1ccncc1,-,-,-,-,MIC,-,100 µg/mL
CC1(C)c2ccccc2-c2nc3ccccc3nc2C1O,H37Rv,-,-,BACTEC,MIC bound,-,>12.5 µg/mL
COC(=O)C1=C(C)NC(Nc2ccc(F)c(Br)c2)=NC1c1ccc(Cl)cc1,XDR-TB,-,-,agar,MIC,-,>64 µg/mL
CO[C@H]1/C=C/O[C@@]2(C)Oc3c(C)c(O)c4c(O)c(c5[nH]c(N(C)c6ccccc6)nc5c4c3C2=O)NC(=O)/C(C)=C\C=C\[C@H](C)[C@H](O)[C@@H](C)[C@@H](O)[C@@H](C)[C@H](OC(C)=O)[C@@H]1C,H37Rv,-,-,-,MIC,-,0.02 µg/mL
O=C1/C(=C/c2ccccc2[N+](=O)[O-])SC(=S)N1CCCNc1ccnc2cc(Cl)ccc12,H37Rv,-,-,agar,MIC,-,6.25 µM
COC1=NOC2(CCN(C(=O)CCC(F)(F)F)CC2)C1,H37Rv,-,THP-1,fluorescence,EC50,-,<0.05 µM
COc1cc(N=Nc2ccc(C(=O)N(C)C)cc2)c(C)cc1N=Nc1c(O)c2ccccc2[nH]c1=O,H37Rv,-,-,BACTEC,inhibition,12.5 µg/mL,0%
O=[N+]([O-])c1ccc2sc3nnc(SCc4ccc(Cl)c(Cl)c4)n3c2c1,H37Rv,-,-,-,MIC,-,10 µg/mL
CN[C@@H]1[C@@H](O)C(O[C@@H]2[C@@H](O)[C@H](OC3O[C@H](CN)[C@@H](O)[C@H](O)[C@H]3O)[C@@H](N)C[C@H]2NC(=O)[C@@H](O)CN)OC[C@]1(C)O,J12,-,-,-,MIC,-,1.56 µg/mL
CN(C)/N=C1\C(=O)N(CCCl)c2cc(Cl)c(Cl)cc21,H37Rv,-,-,BACTEC,MIC,-,≥12.8 µg/mL
C=C[C@](C)(O)CC[C@H]1C(=C)CC[C@H]2C(C)(C)[C@@H](OC(C)=O)CC[C@]12C,-,-,-,-,MIC,-,>100 µg/mL
CC(=O)N[C@H]1[C@@H](O[C@@H]2O[C@H](C[C@@H](O)[C@H]3O[C@@H](n4ccc(=O)[nH]c4=O)[C@H](O)[C@@H]3O)[C@H](O)[C@H](O)[C@H]2NC(=O)/C=C/CC(C)C)O[C@H](CO)[C@@H](O)[C@@H]1O,KM-R,-,-,-,MIC,-,1.6 µg/mL
O=C1/C(=C/c2ccco2)SC(=S)N1CCCCNc1ccnc2cc(Cl)ccc12,H37Rv,-,-,agar,MIC,-,6.25 µM
CO[C@H]1/C=C/O[C@@]2(C)Oc3c(C)c(O)c4c(c3C2=O)C(=O)C(N=CN2CCCCCC2)=C(NC(=O)/C(C)=C\C=C\[C@H](C)[C@H](O)[C@@H](C)[C@@H](O)[C@@H](C)[C@H](OC(C)=O)[C@@H]1C)C4=O,H37Rv,-,-,-,MIC,-,0.0012 µg/mL
N.O=C(O)c1cccc2c(=O)c3ccccc3oc12,H37Rv,-,-,BACTEC,MIC,-,≥128 µg/mL
Cc1ccc2oc(=O)c(C3=Nc4ccccc4NC(c4cccc(Oc5ccccc5)c4)C3)c(O)c2c1,H37Rv,-,-,resazurin,MIC,-,>6.25 µg/mL
CCCN(CCC)c1nc2c([nH]1)c1c(O)c3c(O)c(C)c4c(c32)C(=O)[C@@](C)(O/C=C/[C@H](OC)[C@@H](C)[C@@H](OC(C)=O)[C@H](C)[C@H](O)[C@H](C)[C@@H](O)[C@@H](C)/C=C/C=C(/C)C(=O)N1)O4,H37Rv,-,-,-,MIC,-,0.02 µg/mL
COc1ccc(C2CC(c3c(O)c4cc(C)ccc4oc3=O)=Nc3ccccc3N2)cc1,H37Rv,-,-,resazurin,MIC,-,>6.25 µg/mL
O=S(=O)(Nc1ccc(F)c(Cl)c1)c1nnc2sc3ccccc3n12,H37Rv,-,-,-,MIC,-,50 µg/mL
C[C@@H]1CC[C@H]2C(C(=O)O)=CCC[C@@H]2[C@@]1(C)CCc1ccoc1,-,-,-,-,MIC,-,>100 µg/mL
Clc1ccc(-n2nnnc2SSc2nnnn2-c2ccc(Cl)cc2)cc1,H37Rv,-,-,-,MIC,-,125 µM
Nc1ccc(OCc2nnc3n2N(C(=O)c2ccncc2)C(=O)CS3)cc1,-,-,-,-,MIC,-,100 µg/mL
CCCCOC(=S)SCN1C(=O)c2ccccc2S1(=O)=O,H37Rv,-,-,-,inhibition,6.25 µg/mL,99%
C=CC(C)(C)C1=CC(=O)C(OC)=CC1=O,H37Rv,-,-,BACTEC,MIC,-,32 µg/mL
COc1ccc(C2C=C(c3c(O)c4ccccc4oc3=O)Nc3ccccc3S2)cc1,H37Rv,-,-,resazurin,MIC,-,<6.25 µg/mL
CN1CCN(CCCN2c3ccccc3Sc3ccc(C(F)(F)F)cc32)CC1,H37Rv,-,-,-,MBC,-,40 µg/mL
O=c1[nH]c2ccc(C(F)(F)F)cc2nc1C(F)(F)F,-,-,-,-,inhibition,12.5 µg/mL,inactive
O=c1oc2ccccc2c(O)c1C1=CC(c2cccc(O)c2)Sc2ccccc2N1,H37Rv,-,-,resazurin,MIC,-,<6.25 µg/mL
CC1COc2c(N3CCN(C)CC3)c(F)cc3c(=O)c(C(=O)O)cn1c23,18 strains,-,-,-,MIC90,-,1 µg/mL
C/C(=N\NC(=O)c1ccncc1)c1ccccc1O,H37Rv,-,-,BACTEC,MIC,-,1.84 µg/mL
O=C(c1ccncc1)N1C(c2ccccc2)=C(c2ccccc2)Sc2nnc(COc3ccc4ccccc4c3)n21,-,-,-,-,MIC,-,100 µg/mL
COC(=O)NNC(=O)C(=O)NNC(=O)OC,H37Rv,-,-,BACTEC,MIC bound,-,>12.5 µg/mL
NNC(=O)c1ccncc1,53.3,Rv2466c W28S,-,resazurin,MIC,-,0.025 µg/mL
CO[C@H]1/C=C/O[C@@]2(C)Oc3c(C)c(O)c4c(O)c(c5[nH]c(N(C)Cc6ccccc6)nc5c4c3C2=O)NC(=O)/C(C)=C\C=C\[C@H](C)[C@H](O)[C@@H](C)[C@@H](O)[C@@H](C)[C@H](OC(C)=O)[C@@H]1C,H37Rv,-,-,-,MIC,-,0.02 µg/mL
CSC(=S)N/N=C/c1cccc(C)n1,H37Rv,-,-,BACTEC,inhibition,128 µg/mL,100%
COc1ccc(C2CC(c3c(O)c4c(C)ccc(C)c4oc3=O)=Nc3ccccc3N2)cc1,H37Rv,-,-,resazurin,MIC,-,>6.25 µg/mL
O=C(CSC1=NNC2(C(=O)N1)c1ccccc1-c1ccccc12)NC(=S)Nc1ccccc1,H37Rv,-,-,BACTEC,inhibition,12.5 µg/mL,11%
Nc1ccccc1-c1nnc2n1N(C(=O)c1ccncc1)C(=O)CS2,-,-,-,-,MIC,-,10 µg/mL
Ic1ccc(-n2nnnc2SSc2nnnn2-c2ccc(I)cc2)cc1,H37Rv,-,-,-,MIC,-,125 µM
Cn1c2cc(F)ccc2c(=O)c2c(O)cc3c(c21)C=CC(C)(C)O3,H37Rv,-,-,BACTEC,inhibition,12.5 µg/mL,18%
O=C(CCC(F)(F)F)N1CCC2(CC1)CC(Br)=NO2,H37Rv,-,THP-1,fluorescence,EC50,-,<0.1 µM
Cc1c2c(cc3c1[nH]c1ccccc13)C(c1ccc(F)cc1)=NCC2,H37Rv,-,VERO,resazurin,MIC,-,6.25 µg/mL
CCCOC(=S)SCN1C(=O)c2ccccc2S1(=O)=O,H37Rv,-,-,-,MIC,-,6.25 µg/mL
COC(=O)C1=C(C)NC(=NCc2ccc(OC)cc2OC)NC1c1ccc(Cl)cc1,H37Rv,-,-,agar,MIC,-,16 µg/mL
O=c1[nH]c2cc(C(F)(F)F)ccc2nc1C(F)(F)F,-,-,-,-,EC50,-,>12.5 µg/mL
CCOC(=S)SCN1C(=O)c2ccccc2S1(=O)=O,H37Rv,-,-,-,inhibition,6.25 µg/mL,96%
Cc1nn(C(=O)c2ccncc2)c(C)c1N=Nc1ccc([N+](=O)[O-])cc1,H37Rv,-,-,BACTEC,inhibition,12.5 µg/mL,37%
O=S(=O)(Nc1ccccn1)c1nnc2sc3ccccc3n12,H37Rv,-,-,-,MIC,-,2 µg/mL
CC1CN(C(=O)/C=C/C(=O)OC2CCCCC2)CCN1C(=O)/C=C/C(=O)OC1CCCCC1,CS-R,-,-,-,MIC,-,12.5 µg/mL
O=C(c1ccncc1)N1C(c2ccccc2)=C(c2ccccc2)Sc2nnc(-c3ccc(Cl)cc3)n21,-,-,-,-,MIC,-,10 µg/mL

5 of the rows above, restated:

SMILES | strain or isolate | changes | cells | method | read-out | dose | value
C=C[C@](C)(O)CC[C@H]1C(=C)CC[C@H]2C(C)(C)[C@@H](OC(C)=O)CC[C@]12C | - | - | - | - | MIC | - | >100 µg/mL
O=c1[nH]c2cc(F)c(F)cc2nc1CBr | - | - | - | - | inhibition | 12.5 µg/mL | inactive
Cc1nn(C(=O)c2ccncc2)c(C)c1N=Nc1ccc([N+](=O)[O-])cc1 | H37Rv | - | - | BACTEC | inhibition | 12.5 µg/mL | 37%
CO[C@H]1/C=C/O[C@@]2(C)Oc3c(C)c(O)c4c(O)c(c(/C=N/N5CCN(C6CCCC6)CC5)c(O)c4c3C2=O)NC(=O)/C(C)=C\C=C\[C@H](C)[C@H](O)[C@@H](C)[C@@H](O)[C@@H](C)[C@H](OC(C)=O)[C@@H]1C | H37Rv | - | - | resazurin | MIC90 | - | <0.15 µM
O=C1/C(=C/c2ccccc2[N+](=O)[O-])SC(=S)N1CCCNc1ccnc2cc(Cl)ccc12 | H37Rv | - | - | agar | MIC | - | 6.25 µM

ECn: concentration that inhibits the pathogen or its effect by n%. Neighbouring rows are from separate reports. Inhibition is in % at the dose shown (toxicity tests: loss of growth or viability). An empty or dashed field is not shown. For "inactive" no cut-off is given. A number after MIC or MFC names an inhibition level or a share of isolates. Two numbers with a dash give a range or band.